Measured values from several laboratories, pooled; numbers as filed in NIAID ChemDB.

Common to all: host cell toxicity; cells: Huh7; read-out: CC50

Blank or dashed fields: not listed here. CCn: concentration that lowers growth or viability of the cells by n%. Conditions beyond the fields shown may differ between rows.

compound | method | result
CC(C)N1CC[C@@H](N2CCn3c(c(C4CCCCC4)c4sc(C(=O)O)cc43)-c3ccccc3C2)C1 | - | >4.75 µM
NC(=O)c1nnn([C@@H]2C[C@H](CCP(=O)(O)O)C[C@H]2O)c1N | - | >320 µM
CCOC(=O)[C@H](C)NP(=O)(OC[C@H]1O[C@@H](n2cnc3c(N)nc(N)nc32)[C@](C)(O)[C@@H]1O)Oc1ccccc1CCC(=O)OC(C)C | - | >10 µM
Nc1ccn(C2CCC(C(=O)O)O2)c(=O)n1 | XTT | >250 µg/mL
C[C@@]1(O)[C@H](O)[C@@H](CO)O[C@H]1C1C=Nc2c(N)ncn[n+]21 | - | >89 µM
O=C(O)c1cc2c(s1)c(C1CCCCC1)c(-c1ccccc1)n2Cc1ccncc1 | - | >105 µM
[2H][C@@](CCC)(NC(=O)[C@@H]1[C@H]2CCC[C@H]2CN1C(=O)[C@@H](NC(=O)[C@@H](NC(=O)c1cnccn1)C1CCCCC1)C(C)(C)C)C(=O)C(=O)NC1CC1 | MTT | 83 µM
CCOC(=O)CCc1ccccc1OP(=O)(N[C@@H](C)C(=O)OCC)OC[C@H]1O[C@@H](n2cnc3c(N)nc(N)nc32)[C@](C)(O)[C@@H]1O | - | >10 µM
CC(Cc1ccc(O)c(O)c1)C(C)Cc1ccc(O)c(O)c1 | - | 70 µM
C=CC[C@@H]1/C=C(/C)C[C@H](C)C[C@H](OC)[C@H]2O[C@@](O)(C(=O)C(=O)N3CCCC[C@H]3C(=O)O[C@H](/C(C)=C/[C@@H]3CC[C@@H](O)[C@H](OC)C3)[C@H](C)[C@@H](O)CC1=O)[C@H](C)C[C@@H]2OC | - | 100 µM
C[C@@]1(O)[C@H](O)[C@@H](CO)O[C@H]1n1ccc2c(N)ncnc21 | MTT | >100 µM
Cc1c(N)nc([C@H](CC(N)=O)NC[C@H](N)C(N)=O)nc1C(=O)N[C@H](C(=O)N[C@H](C)[C@@H](O)[C@H](C)C(=O)N[C@H](C(=O)NCCc1nc(-c2nc(C(=O)NCCC[S+](C)C)cs2)cs1)[C@@H](C)O)C(O[C@@H]1O[C@@H](CO)[C@@H](O)[C@H](O)[C@@H]1O[C@H]1O[C@H](CO)[C@@H](O)[C@H](OC(N)=O)[C@@H]1O)c1cnc[nH]1 | - | >10 µM
O=C(c1nn2c(C(F)(F)F)cc(C3CC3)cc2c1Cl)N1CCC2(CC1)OCCO2 | ATP | >50 µM
NC(=O)c1cn([C@@H]2C[C@H](CO)C[C@H]2O)nn1 | - | >320 µM
CC(C)CNC(=O)c1c(C(=O)O)sc2c(C3CCCCC3)c(-c3ccc(Cl)cc3)n(C)c12 | - | >770 µM
CCOC(=O)CCc1ccccc1O[P@](=O)(N[C@@H](C)C(=O)OC(C)C)OC[C@H]1O[C@@H](n2cnc3c(N)nc(N)nc32)[C@](C)(O)[C@@H]1O | - | >10 µM
CCC[C@H](NC(=O)[C@@H]1[C@H]2CCC[C@H]2CN1C(=O)[C@@H](NC(=O)[C@@H](NC(=O)c1cnccn1)C1CCCCC1)C(C)(C)C)C(=O)C(=O)NC1CC1 | MTT | 37 µM
N#Cc1c(-c2ccccc2-c2ccco2)nc(SCc2nc3ccccc3[nH]2)[nH]c1=O | MTT | 657 µM
CCCC(NC(=O)[C@@H]1[C@@H]2CCC[C@@H]2CN1C(=O)[C@@H](NC(=O)OC(C)C)C(C)C)C(=O)C(=O)N[C@@H](C)c1ccccc1 | - | >100 µM
N#Cc1c(-c2ccccc2)nc(NCc2nc3ccccc3[nH]2)[nH]c1=O | MTT | 986 µM
C[C@]12C=CC(=O)C=C1CC[C@@H]1[C@@H]2C(=O)C[C@@]2(C)[C@H]1CC[C@]2(O)C(=O)CO | - | >300 µM
CN(C)C(=O)c1ccc(COc2ccc(-c3nc4cc(C(=O)O)ccc4n3C3CCCCC3)cc2)c(-c2ccc(Cl)cc2)c1 | - | 28 µM
O=C(O)c1c(-c2ccco2)nc(SCc2nc3ccccc3[nH]2)[nH]c1=O | MTT | 876 µM
C[C@@]1(O)[C@H](O)[C@@H](CO)O[C@H]1c1ccc2c(=O)[nH]c(N)nn12 | MTT | >100 µM
O=C(c1nn2c(C(F)(F)F)cc(C3CC3)cc2c1Cl)N1CCC2(OCC3(CC3)CO2)[C@H](O)C1 | ATP | >50 µM
COC(=O)c1cn([C@@H]2C[C@H](CCP(=O)(O)O)C[C@H]2O)nn1 | - | >320 µM
CC[C@@H]1/C=C(\C)C[C@H](C)C[C@H](OC)[C@H]2O[C@@](O)(C(=O)C(=O)N3CCCC[C@H]3C(=O)O[C@H](/C(C)=C/[C@H]3CC[C@H](O)[C@H](OC)C3)[C@H](C)[C@@H](O)CC1=O)[C@H](C)C[C@@H]2OC | - | 60 µM
O=C(c1nn2c(C(F)(F)F)cc(C3CC3)cc2c1Cl)N1CCC2(CC1)OCC(c1ccccc1)CO2 | ATP | >50 µM
NC(=O)c1cn([C@@H]2C[C@H](CCP(=O)(O)O)C[C@H]2O)nn1 | - | >320 µM
C[C@@]1(O)[C@H](O)[C@@H](CO)O[C@H]1n1cnc2c(N)ncnc21 | MTS | 54 µM
O=C(O)c1c(-c2ccc(O)cc2)nc(SCc2nc3ccccc3[nH]2)[nH]c1=O | MTT | 656 µM
C[C@@]1(O)[C@H](O)[C@@H](CO)O[C@H]1c1cnc2c(=O)[nH]c(N)nn12 | MTT | >100 µM
CCCC(NC(=O)[C@@H]1C2CCCC2CN1C(=O)[C@@H](NC(=O)[C@@H](O)C(C)C)C(C)C)C(=O)C(=O)NC1CC1 | - | >100 µM
Nc1ncnc2c1ccn2[C@@H]1O[C@H](CO)[C@@H](O)[C@H]1O | MTS | >89 µM
CC(C)OC(=O)[C@H](C)N[P@](=O)(OC[C@H]1O[C@@](C#N)(c2ccc3c(N)ncnn23)[C@](C)(O)[C@@H]1OC(=O)C(C)C)Oc1ccccc1 | ATP | >90 µM
CC1(C)COC2(CCN(C(=O)c3nn4c(C(F)(F)F)cc(C5CC5)cc4c3Cl)CC2)OC1 | ATP | >25 µM
CC(C)[C@@H](C)/C=C/[C@@H](C)[C@H]1CC[C@H]2C3=CC=C4C[C@@H](O)CC[C@]4(C)[C@H]3CC[C@]12C | WST | >4 µg/mL
CC(C)OC(=O)CCc1ccccc1O[P@](=O)(N[C@@H](C)C(=O)OC(C)C)OC[C@H]1O[C@@H](n2cnc3c(N)nc(N)nc32)[C@](C)(O)[C@@H]1O | - | >10 µM
CCC[C@H](NC(=O)[C@@H]1C2CCCC2CN1C(=O)[C@@H](NC(=O)[C@@H](NC(=O)c1cnccn1)C1CCCCC1)C(C)(C)C)C(=O)C(=O)N[C@@H](C)c1ccncc1 | - | 73.6 µM
N#Cc1c(-c2ccccc2O)nc(SCc2nc3ccccc3[nH]2)[nH]c1=O | MTT | 311 µM
CC(C)OC(=O)CCc1ccccc1O[P@@](=O)(N[C@@H](C)C(=O)OC(C)C)OC[C@H]1O[C@@H](n2cnc3c(N)nc(N)nc32)[C@](C)(O)[C@@H]1O | - | >10 µM
O=C(O)c1c(-c2ccccc2O)nc(NCc2nc3ccccc3[nH]2)[nH]c1=O | MTT | 673 µM
COC(=O)N[C@H](C(=O)N1CCC[C@H]1c1nc2ccc(-c3csc4c(-c5ccc(-c6cnc([C@@H]7CCCN7C(=O)[C@H](NC(=O)OC)c7ccccc7)[nH]6)cc5)csc34)cc2[nH]1)C(C)C | resazurin | >50 µM
C[C@H](NP(=O)(N[C@@H](C)C(=O)OC(C)(C)C)OC[C@H]1O[C@@H](n2cnc(C(N)=O)n2)[C@H](O)[C@@H]1O)C(=O)OC(C)(C)C | - | >100 µM
CCOC(=O)CCc1ccccc1OP(=O)(N[C@@H](C)C(=O)OC(C)C)OC[C@H]1O[C@@H](n2cnc3c(N)nc(N)nc32)[C@](C)(O)[C@@H]1O | - | >10 µM
O=C(c1nn2c(C(F)(F)F)cc(C3CC3)cc2c1Cl)N1CCC2(CC1)OCC1(COC1)CO2 | ATP | >50 µM
O=C(O)c1cc2c(s1)c(C1CCCCC1)c(-c1ccccc1)n2CCN1CCCC1 | - | >87.5 µM
Nc1ncnc2c1ncn2[C@@H]1O[C@H](OCCP(=O)(O)O)[C@@H](O)[C@H]1O | - | >300 µM

4 of the rows above, restated:

compound	method	result
CCCC(NC(=O)[C@@H]1[C@@H]2CCC[C@@H]2CN1C(=O)[C@@H](NC(=O)OC(C)C)C(C)C)C(=O)C(=O)N[C@@H](C)c1ccccc1	-	>100 µM
O=C(O)c1cc2c(s1)c(C1CCCCC1)c(-c1ccccc1)n2CCN1CCCC1	-	>87.5 µM
CCCC(NC(=O)[C@@H]1C2CCCC2CN1C(=O)[C@@H](NC(=O)[C@@H](O)C(C)C)C(C)C)C(=O)C(=O)NC1CC1	-	>100 µM
NC(=O)c1cn([C@@H]2C[C@H](CCP(=O)(O)O)C[C@H]2O)nn1	-	>320 µM